{"source": "PubChem BioAssay AID504761 (Drosophila RNAi Screening Center, 2011)", "test": "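Insect host genes that dengue virus relies on to spread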 (primary screen)", "system": "D.Mel-2 cells from Drosophila", "reagent": "long dsRNA against Drosophila genes", "conditions": "infection with dengue virus type 2; dose and infection time not stated", "measurement": "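Per well on two replicate plates, imaging gave the percent of cells positive for viral envelope protein, ranked by infection, and a nuclear count of cells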", "scale": "infection score: higher = more virus-infected cells", "hit rule": "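Low infection ranks in the two replicates (chance level up to 0.065) followed by a retest with a 1.5-fold or larger significant decrease, p below 0.05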", "meaning of the calls": "active = confirmed: knock-down lowers infection; inactive = not picked or not confirmed", "note": "The screen tested about 22,000 reagents; shown is an unselected part of those with a known target gene and a result. In the full data, 116 (0.52%) were called active. 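Calls depend on retest data that are not deposited; infection was ranked per plate without normalising between plates; the unit of the infection score is not given.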 Not all columns of the deposit are shown. The record does not give: the amount of reagent, the time to read-out."}
{"gene": "Ir60e (Ionotropic receptor 60e)", "DRSC id": "DRSC04227", "infection score, replicate 1": 4.96, "activity call": "inactive"}
{"gene": "Camta (Calmodulin-binding transcription activator)", "DRSC id": "DRSC07272", "infection score, replicate 1": 29.7, "activity call": "inactive"}
{"gene": "Camta (Calmodulin-binding transcription activator)", "DRSC id": "DRSC23081", "infection score, replicate 1": 1.72, "activity call": "inactive"}
{"gene": "Camta (Calmodulin-binding transcription activator)", "DRSC id": "DRSC23156", "infection score, replicate 1": 2.02, "activity call": "inactive"}
{"gene": "Camta (Calmodulin-binding transcription activator)", "DRSC id": "DRSC26757", "infection score, replicate 1": 3.73, "activity call": "inactive"}
{"gene": "Camta (Calmodulin-binding transcription activator)", "DRSC id": "DRSC27929", "infection score, replicate 1": 27.4, "activity call": "inactive"}
{"gene": "Gba1b (Glucocerebrosidase 1b)", "DRSC id": "DRSC21531", "infection score, replicate 1": 1.15, "activity call": "inactive"}

Next part (2 carried over from the part before).
{"gene": "Camta (Calmodulin-binding transcription activator)", "DRSC id": "DRSC27929", "infection score, replicate 1": 27.4, "activity call": "inactive"}
{"gene": "Gba1b (Glucocerebrosidase 1b)", "DRSC id": "DRSC21531", "infection score, replicate 1": 1.15, "activity call": "inactive"}
{"gene": "raskol", "DRSC id": "DRSC19202", "infection score, replicate 1": 0.23, "activity call": "inactive"}
{"gene": "raskol", "DRSC id": "DRSC19731", "infection score, replicate 1": 2.09, "activity call": "inactive"}
{"gene": "raskol", "DRSC id": "DRSC19964", "infection score, replicate 1": 4.12, "activity call": "inactive"}
{"gene": "raskol", "DRSC id": "DRSC21788", "infection score, replicate 1": 2.8, "activity call": "inactive"}
{"gene": "CG33464 (retired record)", "DRSC id": "DRSC22936", "infection score, replicate 1": 2.06, "activity call": "inactive"}
{"gene": "CG9886", "DRSC id": "DRSC00732", "infection score, replicate 1": 4.31, "activity call": "inactive"}
{"gene": "CG9886", "DRSC id": "DRSC26380", "infection score, replicate 1": 3.36, "activity call": "inactive"}
